PubChem BioAssay AID651958 (The Scripps Research Institute Molecular Screening Center, 2012)
The entries are a selection whose mix differs from that of the whole data set. Some salts or complexes appear as unconnected parts, following the source record. The source made the active and inactive calls. Rule as the data show it: active = inhibition above about 30%; inactive = the rest.

test system: Crimean-Congo hemorrhagic fever virus L polyprotein viral ovarian tumor (vOTU) protease domain; experiment: CCHFV vOTU protease inhibitors, primary screen, biochemical, Pep-AMC substrate, fluorescence (AID 651958); conditions: at 11.5 µM, hits give high values; also: 0% = vehicle wells with enzyme and 100% = no enzyme wells

SMILES | inhibition
O=[N+]([O-])c1cc([N+](=O)[O-])c(-n2nnc3ccccc32)c([N+](=O)[O-])c1 | inactive: 3.18%
CN(Cc1cccnc1)C(=O)COc1ccc(Cl)c(Cl)c1.O=[N+]([O-])c1cc([N+](=O)[O-])c(O)c([N+](=O)[O-])c1 | inactive: 19.6%
O=[N+]([O-])c1cc([N+](=O)[O-])c(-c2cnn(-c3ccccc3)c2)c([N+](=O)[O-])c1 | inactive: 11.1%
Cc1nc2ccc3ccccc3c2s1.O=[N+]([O-])c1cc([N+](=O)[O-])c(O)c([N+](=O)[O-])c1 | active: 37.5%
CCOC(=O)C(CC)C1=NC(C)(C)Cc2ccccc21.O=[N+]([O-])c1cc([N+](=O)[O-])c(O)c([N+](=O)[O-])c1 (centres undefined) | inactive: -0.22%
O=[N+]([O-])c1cc([N+](=O)[O-])c(Nc2nnnn2CCO)c([N+](=O)[O-])c1 | inactive: 9.46%
CN1CCCCC1COC(=O)C1(O)c2ccccc2CCc2ccccc21 (centres undefined) | inactive: 6.3%
COc1ccccc1OP(C)(=O)Nc1c(C)cccc1C (centres undefined) | inactive: -21.4%
CP(=O)(Nc1ccc(SC(F)(F)F)cc1)Oc1ccccc1 (centres undefined) | inactive: 2.09%
CCCOc1ccc(NP(C)(=O)Oc2ccc(Cl)cc2)cc1 (centres undefined) | inactive: 13.5%
COc1ccc(-c2ccccn2)cc1.O=[N+]([O-])c1cc([N+](=O)[O-])c(O)c([N+](=O)[O-])c1 | inactive: 10.8%
O=C(O)c1cccc(Nc2c([N+](=O)[O-])cc([N+](=O)[O-])cc2[N+](=O)[O-])c1 | inactive: 27.2%
CC1=NCCc2c1[nH]c1ccccc21.O=[N+]([O-])c1cc([N+](=O)[O-])c(O)c([N+](=O)[O-])c1 | inactive: 0.27%
COc1ccccc1OP(C)(=O)Nc1cccc(Br)c1 (centres undefined) | inactive: 13%
Cc1cc(C)cc(OP(C)(=O)Nc2ccc(C)cc2C)c1 (centres undefined) | inactive: 22.3%
CCOC(=O)c1ccc(NP(C)(=O)Oc2cc(C)cc(C)c2)cc1 (centres undefined) | inactive: 2.64%
CP(=O)(Nc1cccc(Br)c1)Oc1ccccc1 (centres undefined) | inactive: -3.97%
Cc1cc(C)cc(OP(C)(=O)Nc2ccccn2)c1 (centres undefined) | inactive: -4.8%
Cc1ccc(C)c(NP(C)(=O)Oc2ccccc2)c1 (centres undefined) | inactive: 1.1%
CCN(CC)CCCOC(=O)C(O)(c1ccccc1)c1ccccc1 | inactive: 6.2%
COc1ccccc1-c1ccccn1.O=[N+]([O-])c1cc([N+](=O)[O-])c(O)c([N+](=O)[O-])c1 | inactive: 6.79%
O=[N+]([O-])c1cc([N+](=O)[O-])c(Nc2cccnc2)c([N+](=O)[O-])c1 | inactive: 9.24%
Cc1cccc(C)c1OP(C)(N)=O (centres undefined) | inactive: 20.5%
CC(C)(C)c1ccc(OP(C)(=O)Nc2ccc(SC(F)(F)F)cc2)cc1 (centres undefined) | active: 38.8%
O=[N+]([O-])c1ccc2c(c1)C=Nc1ccccc1O2 | inactive: 8.14%

SMILES | inhibition
CCOC(=O)c1ccc(NP(C)(=O)Oc2ccccc2)cc1 (centres undefined) | inactive: 1.23%
Cc1ccc(NP(C)(=O)Oc2ccccc2)c(C)c1 (centres undefined) | inactive: 1.34%
COc1ccccc1OP(C)(=O)Nc1ccc(C)cc1 (centres undefined) | inactive: 17.2%
COc1ccc(OP(C)(=O)Nc2cccc(F)c2)cc1 (centres undefined) | inactive: -7.26%
COc1ccccc1OP(C)(=O)Nc1cc(Cl)ccc1C (centres undefined) | inactive: -8.26%
Cc1cc(C)cc(OP(C)(N)=O)c1 (centres undefined) | inactive: 5.66%
CP(=S)(Nn1cnnc1)Oc1ccccc1 (centres undefined) | inactive: -3.31%
COc1ccccc1OP(C)(=O)Nc1ccccc1 (centres undefined) | inactive: -6.43%
CP(=O)(Nc1ccccc1Br)Oc1ccccc1 (centres undefined) | inactive: 18.2%
CP(=O)(Oc1ccccc1)OC(c1ccccc1)C(F)(F)F (centres undefined) | inactive: -12.2%
CP(=O)(Nc1ccc(SC(F)(F)F)cc1)Oc1ccc(Cl)cc1 (centres undefined) | inactive: 6.92%
Cc1cccc(C)c1OP(C)(=O)Nc1ccc(SC(F)(F)F)cc1 (centres undefined) | inactive: -1.83%
Cc1cc(C)cc(OP(C)(=O)Nc2ccc(SC(F)(F)F)cc2)c1 (centres undefined) | inactive: -11.6%
CCc1ccc(OP(C)(=O)N2CCN(c3ccc([N+](=O)[O-])cc3)CC2)cc1 (centres undefined) | inactive: 0.8%
CP(=O)(NC(=O)Nc1ccccc1)Oc1ccccc1 (centres undefined) | inactive: -1.43%
CCOP(C)(=S)SCC(=O)NC(C)C(=O)O (centres undefined) | inactive: 4.03%
O=[N+]([O-])c1cc([N+](=O)[O-])c(O)c([N+](=O)[O-])c1.c1ccc(Oc2ccncc2)cc1 | inactive: 10.4%
CCOC(=O)c1ccc(NP(C)(=O)Oc2ccc(OC)cc2)cc1 (centres undefined) | inactive: 7.48%
CP(=O)(Nc1ccccn1)Oc1ccc(Cl)cc1 (centres undefined) | inactive: -8.52%
COc1ccc(OP(C)(=O)Nc2ccc(Br)cc2)cc1 (centres undefined) | inactive: 2.38%
CCN(CC)CC(O)COC(=O)C(O)(c1ccccc1)C1CCCCC1 (centres undefined) | inactive: -6.28%
CCc1ccc(OP(C)(=O)Nc2cccnc2)cc1 (centres undefined) | inactive: -10.6%
CP(=O)(Oc1ccccc1)N1CCOC1=O (centres undefined) | inactive: 15%
O=C(OCCCN1CCCC1)C(O)(c1ccccc1)C1CCCCC1 (centres undefined) | inactive: 1.67%
COc1ccccc1OP(C)(=O)Nc1c(C)n(C)n(-c2ccccc2)c1=O (centres undefined) | inactive: -1.07%

SMILES | inhibition
CP(=O)(Nc1ccc(Cl)cc1)Oc1ccc(F)cc1 (centres undefined) | inactive: 18%
CC(C)(C)c1ccc(OP(C)(=O)O)cc1 | inactive: 18.3%
COc1ccccc1OP(C)(=O)Nc1ccccc1Br (centres undefined) | inactive: -14.3%
CN(C)C(=O)c1c([N+](=O)[O-])cc([N+](=O)[O-])cc1[N+](=O)[O-] | inactive: 14%
Nc1ccc2c(ccc3cccnc32)n1.O=[N+]([O-])c1cc([N+](=O)[O-])c(O)c([N+](=O)[O-])c1 | inactive: -11.3%
CP(=O)(OC12CC3CC(CC(C3)C1)C2)OC12CC3CC(CC(C3)C1)C2 | inactive: -3.44%
CCOC(=O)c1ccc(NP(C)(=O)Oc2ccc(Cl)cc2)cc1 (centres undefined) | inactive: -8.61%
Cc1cc(C)cc(OP(C)(=O)Nc2cccc(C(F)(F)F)c2)c1 (centres undefined) | inactive: 22.4%
O=C1C(O)=C([N+](=O)[O-])C(=O)C(O)=C1[N+](=O)[O-] | inactive: -2.36%
COc1ccc(OP(C)(=O)Nc2ccccc2Br)cc1 (centres undefined) | inactive: -16.6%
COc1ccccc1OP(C)(=O)Nc1ccc(C)c(C)c1 (centres undefined) | inactive: -9.3%
CP(=O)(OCCOc1ccccc1)OCCOc1ccccc1 | inactive: 12%
CP(=O)(Nc1ccc(Cl)cc1Cl)Oc1ccccc1 (centres undefined) | inactive: 9.23%
CCCCCCCCCCCCCCCC1C[N+](C)(C)CCOP(C)(=O)O1 (centres undefined) | inactive: 14.2%
COc1ccccc1OP(C)(=O)Nc1ccc(Br)cc1 (centres undefined) | inactive: 7.07%
CN(C)CCOC(=O)C(O)(c1ccccc1)C1CCCC1 (centres undefined) | inactive: -5.12%
COc1ccc(OP(C)(=O)Nc2ccccn2)cc1 (centres undefined) | inactive: -0.86%
O=[N+]([O-])c1cc([N+](=O)[O-])c(Nc2ccccn2)c([N+](=O)[O-])c1 | active: 37.6%
Cc1c(NP(C)(=O)Oc2ccc(C(C)C)cc2)c(=O)n(-c2ccccc2)n1C (centres undefined) | inactive: -3.88%
CCc1ccc(OP(C)(=O)O)cc1 | inactive: -2.6%
COc1ccccc1OP(C)(=O)Nc1ccc(C)cc1C (centres undefined) | inactive: -5.98%
CP(=O)(Nc1ccccn1)Oc1ccccc1 (centres undefined) | inactive: 8.57%
O=[N+]([O-])c1cc([N+](=O)[O-])c(Nc2ccc(Cl)cc2)c([N+](=O)[O-])c1 | inactive: 12%
CC(C)c1ccc(OP(C)(=O)Nc2ccc(SC(F)(F)F)cc2)cc1 (centres undefined) | inactive: 16.7%
CP(=O)(Nc1ccccc1F)Oc1ccccc1 (centres undefined) | inactive: 9.08%

SMILES | inhibition
O=C(OCCN1CCN(CCOCc2ccccc2)CC1)C(O)(c1ccccc1)c1ccccc1 | inactive: -12.9%
O=C(OC1CN2CCC1CC2)c1ccc([N+](=O)[O-])cc1 (centres undefined) | inactive: 5.86%
COc1ccc2c(c1O)-c1c(O)c(OC)cc3c1[C@H](C2)[N+](C)(C)CC3.O=[N+]([O-])c1cc([N+](=O)[O-])c([O-])c([N+](=O)[O-])c1[O-] | inactive: -17.9%
CCN(CC)CCCNc1ccccc1[N+](=O)[O-].O=[N+]([O-])c1cc([N+](=O)[O-])c(O)c([N+](=O)[O-])c1 | inactive: 10.9%
COc1ccc(OP(C)(=O)Nc2ccc(SC(F)(F)F)cc2)cc1 (centres undefined) | inactive: 4.96%
CCOC(=O)c1ccc(NP(C)(=O)Oc2ccc(F)cc2)cc1 (centres undefined) | inactive: -9.07%
CCN(CC)CCCOC(=O)C(O)(c1ccccc1)C1CCCCC1 (centres undefined) | inactive: 10.2%
Cc1c([N+](=O)[O-])cc([N+](=O)[O-])c(Br)c1[N+](=O)[O-] | inactive: 9.94%
O=[N+]([O-])c1cc([N+](=O)[O-])c(OC2CCCCC2O)c([N+](=O)[O-])c1 (centres undefined) | inactive: 3.91%
CCCCCOc1ccc(NP(C)(=O)Oc2ccc(Cl)cc2Cl)cc1 (centres undefined) | inactive: 13.8%
CP(=O)(Nc1ccccc1)Oc1ccc(F)cc1 (centres undefined) | inactive: 3.17%
COc1ccc(OP(C)(=O)Nc2cccc(Br)c2)cc1 (centres undefined) | inactive: 22%
COc1ccc(NP(C)(=O)Oc2ccccc2OC)cc1 (centres undefined) | inactive: -5.7%
CN(C)CCOC(=O)C(O)(c1ccccc1)C1CCCCC1 (centres undefined) | inactive: -0.94%
O=[N+]([O-])c1cc([N+](=O)[O-])c(NCC2CCS(=O)(=O)C2)c([N+](=O)[O-])c1 (centres undefined) | inactive: 14.7%
Cc1cc(-c2cccc3ccccc23)c(C)cn1.O=[N+]([O-])c1cc([N+](=O)[O-])c(O)c([N+](=O)[O-])c1 | inactive: 14.2%
O=[N+]([O-])c1ccc(OP2(=O)COCCO2)cc1 (centres undefined) | inactive: 7.67%
Cc1c(C(c2ccc3c(c2)OCO3)c2c(C)n(C)n(-c3ccccc3)c2=O)c(=O)n(-c2ccccc2)n1C.O=[N+]([O-])c1cc([N+](=O)[O-])c(O)c([N+](=O)[O-])c1 | inactive: 1.59%
CP(=O)(Nc1ccc(SC(F)(F)F)cc1)Oc1ccc(F)cc1 (centres undefined) | inactive: 11.3%
CCOP(=O)(CC)OCC | inactive: 1.62%
CCOP(C)(=S)SCC(=O)NC(C)(CC)C(=O)O (centres undefined) | inactive: -12.2%
CP(=O)(Nc1ccc2c(c1)OCCO2)Oc1ccccc1 (centres undefined) | inactive: 1.25%
O=[N+]([O-])c1cc([N+](=O)[O-])c(C(F)(F)F)c([N+](=O)[O-])c1O | inactive: 21.1%
Cc1ccccc1NP(C)(=O)Nc1ccccc1C | inactive: 3.51%
